Compound potency records, mixed from different reports. Data source: NIAID ChemDB in PubChem.

Shared fields: toxicity to cultured cells; cells: H9; read-out: CC50

Conditions beyond the fields shown may differ between rows. CCn: concentration that lowers growth or viability of the cells by n%.

| compound | result |
|---|---|
| O=c1ccn(C2C[C@H](CO)[C@@H](CO)C2)c(=O)[nH]1 | >100 µg/mL |
| O[C@H]1OC[C@H](Cc2ccc3c(c2)OCO3)[C@H]1Cc1ccc2c(c1)OCO2 | >100 µg/mL |
| C[C@@H]1O[C@H]2O[C@H]3[C@@H](OC[C@@H](O)[C@@H]3O)OC(=O)[C@]34CCC(C)(C)C[C@@]3(C)C3=CC[C@@]5(C)[C@@](C)(CC[C@@H]6[C@](C)(CO)[C@@H](O[C@@H]7O[C@H](CO)[C@@H](O)[C@H](O)[C@H]7O[C@@H]7O[C@@H](C(=O)C[C@](C)(O)CC(=O)O[C@@H]1[C@@H](O[C@@H]1OC[C@@H](O)[C@H](O)[C@H]1O)[C@H]2O)[C@H](O)[C@H](O)[C@H]7O)[C@@H](O)C[C@@]65C)[C@]3(C)CC4 | 59 µg/mL |
| C=C(C)[C@@H]1CC[C@]2(COC(=O)CC(C)(C)C(=O)O)CC[C@@H]3[C@H](CC[C@H]4[C@H]3CC[C@H]3C(C)(C)[C@@H](O)CC[C@]43C)[C@@H]12 | 37.4 µM |
| CCc1cc(CCN2C(=O)c3ccccc3C2=O)c(=O)[nH]c1C | >0.06 µM |
| CC(C)[C@H](Cc1ccccc1)NC(=O)C[C@@H]1O[C@@H]1[C@H](Cc1ccccc1)NC(=O)[C@@H](NC(=O)c1cc(=O)c2ccccc2o1)C(C)(C)S(C)(=O)=O | >100 µM |
| Cc1cn([C@H]2C[C@H](N=[N+]=[N-])[C@@H](CO)O2)c(=O)[nH]c1=O | >1873 µM |
| Cc1cn([C@H]2C[C@H](N=[N+]=[N-])[C@@H](CO)O2)c(=O)[nH]c1=O | 1871 µM |
| CC(C)C(NC(=O)C[C@@H]1O[C@@H]1[C@H](Cc1ccccc1)NC(=O)[C@@H](NC(=O)c1cc(=O)c2ccccc2o1)C(C)(C)S(C)(=O)=O)C(C)C | >100 µM |
| C[C@H]1[C@H](C)CC[C@]2(C(=O)O)CC[C@]3(C)C(=CC[C@@H]4[C@@]5(C)CC[C@H](OC(=O)CCC(=O)O)C(C)(C)[C@@H]5CC[C@]43C)[C@H]12 | 44.9 µM |
| CCN(CC)CCNc1nc(NCCCNC(=O)c2cccc(C(=O)NCCCNc3nc4c(c(NCCN(CC)CC)n3)CC=CC4)c2)nc2c1CC=CC2 | >50 µM |
| O=c1oc(-c2ccc(OCc3ccccn3)cc2)cc(O)c1SCCc1ccccc1 | 54.7 µM |
| CC(=O)N[C@H](C(=O)N[C@@H](Cc1ccccc1)[C@H]1O[C@H]1CC(=O)N[C@@H](c1ccccc1)C(C)C)C(C)(C)S(C)(=O)=O | >100 µM |
| C[C@H]1[C@H](C)CC[C@]2(C(=O)O)CC[C@]3(C)C(=CC[C@@H]4[C@@]5(C)CC[C@H](OC(=O)CC(C)(C)CC(=O)O)C(C)(C)[C@@H]5CC[C@]43C)[C@H]12 | 7 µM |
| CC(C)CCNc1ccnc(NCCCNC(=O)c2ccc(C(=O)NCCCNc3nccc(NCCC(C)C)n3)cc2)n1 | 6.3 µM |
| C=C(C)[C@@H]1CC[C@]2(C(=O)O)CC[C@]3(C)[C@H](CC[C@@H]4[C@@]5(C)CC[C@H](OC(=O)COCC(=O)O)C(C)(C)[C@@H]5CC[C@]43C)[C@@H]12 | 11.7 µM |
| Nc1ccn([C@@H]2CS[C@H](CO)O2)c(=O)n1 | >30 µM |
| C=C(C)[C@@H]1CC[C@]2(/C=N/OC(=O)CC(C)(C)CC(=O)O)CC[C@]3(C)[C@H](CC[C@@H]4[C@@]5(C)CC/C(=N\OC(=O)CC(C)(C)CC(=O)O)C(C)(C)[C@@H]5CC[C@]43C)[C@@H]12 | 15.4 µM |
| COc1cc(CBr)c(-c2c(CBr)cc(OC)c(OC)c2OC)c(OC)c1OC | 150 µM |
| O=C(O)C[C@@H]1C(=O)O[C@H]2[C@@H]3OC(=O)c4cc(O)c(O)c(O)c4-c4c(cc(O)c(O)c4O)C(=O)OC[C@H]2O[C@@H](OC(=O)c2cc(O)c(O)c(O)c2)[C@@H]3OC(=O)c2cc(O)c(O)c3c2[C@H]1[C@H](O)C(=O)O3 | >20 µg/mL |
| Nc1cc(S(=O)(=O)O)cc2cc(S(=O)(=O)O)cc(O)c12 | >600 µg/mL |
| O=C(O)C1=C[C@@H](OC(=O)c2cc(O)c(O)c(O)c2)[C@@H](OC(=O)c2cc(O)c(O)c(O)c2)[C@H](OC(=O)c2cc(O)c(O)c(O)c2)C1 | >20 µg/mL |
| C[C@H]1[C@H](C)CC[C@]2(C(=O)O)CC[C@]3(C)C(=CC[C@@H]4[C@@]5(C)CC[C@H](OC(=O)CC(C)(C)C(=O)O)C(C)(C)[C@@H]5CC[C@]43C)[C@H]12 | 49.5 µM |
| CCN(CC)CCNc1nc(NCCCCNC(=O)CCCCC(=O)NCCCCNc2nc3c(c(NCCN(CC)CC)n2)CC=CC3)nc2c1CC=CC2 | >50 µM |
| CC(=O)OCc1cc2ccc3c(c2oc1=O)[C@@H](OC(=O)[C@@]12CC[C@@](C)(C(=O)O1)C2(C)C)[C@@H](OC(=O)[C@@]12CC[C@@](C)(C(=O)O1)C2(C)C)C(C)(C)O3 | 3.34 µM |
| CC(C)[C@@H]1CC[C@]2(C(=O)O)CC[C@]3(C)[C@H](CC[C@@H]4[C@@]5(C)CC[C@H](OC(=O)C(C)(C)CC(=O)O)C(C)(C)[C@@H]5CC[C@]43C)[C@@H]12 | 7.7 µM |
| O=C(O)C[C@H]1C(=O)O[C@H]2[C@H](OC(=O)c3cc(O)c(O)c(O)c3)[C@@H](OC(=O)c3cc(O)c(O)c4c3[C@H]1[C@H](O)C(=O)O4)[C@H](OC(=O)c1cc(O)c(O)c(O)c1)O[C@@H]2COC(=O)c1cc(O)c(O)c(O)c1 | >20 µg/mL |
| CCN(CC)CCNc1ccnc(NCCCCCCNC(=O)c2ccc(C(=O)NCCCCCCNc3nccc(NCCN(CC)CC)n3)cc2)n1 | >50 µM |
| CC(C)[C@@H](NC(=O)C[C@@H]1O[C@@H]1[C@H](Cc1ccccc1)NC(=O)[C@@H](NC(=O)OCc1ccncc1)C(C)(C)S(C)(=O)=O)c1ccccc1 | >100 µM |
| CC1(C)Oc2ccc3cc(CO)c(=O)oc3c2[C@@H](OC(=O)C23CCC(C)(C(=O)O2)C3(C)C)[C@H]1OC(=O)C12CCC(C)(C(=O)O1)C2(C)C | 35.35 µM |
| C[C@@H]1CC[C@]2(C(=O)O)CC[C@]3(C)C(=CC[C@@H]4[C@@]5(C)CC[C@H](O)C(C)(C)[C@@H]5CC[C@]43C)[C@@H]2[C@]1(C)O | 48.9 µM |
| OCc1cc(OCc2ccccc2)c(OCc2ccccc2)c(OCc2ccccc2)c1-c1c(CO)cc(OCc2ccccc2)c(OCc2ccccc2)c1OCc1ccccc1 | >120 µM |
| C=C(C)[C@@H]1CC[C@]2(C(=O)O)CC[C@]3(C)[C@H](CC[C@@H]4[C@@]5(C)CC[C@H](OC(=O)CC(C)(C)C(=O)O)C(C)(C)[C@@H]5CC[C@]43C)[C@@H]12 | 7 µM |
| CC(C)C(NC(=O)C[C@@H]1O[C@@H]1[C@H](Cc1ccccc1)NC(=O)[C@@H](NC(=O)OCc1ccncc1)C(C)(C)S(C)(=O)=O)C(C)C | >100 µM |
| C=C(COC(=O)CC1(CC(=O)O)CCCC1)[C@@H]1CC[C@]2(COC(=O)CC3(CC(=O)O)CCCC3)CC[C@]3(C)[C@H](CC[C@@H]4[C@@]5(C)CC[C@H](OC(=O)CC6(CC(=O)O)CCCC6)C(C)(C)[C@@H]5CC[C@]43C)[C@@H]12 | 6.99 µM |
| Cc1cn(C2C[C@H](CO)[C@@H](CO)C2)c(=O)[nH]c1=O | ~100 µg/mL |
| CCc1cc(NCc2nc3c(C)ccc(C)c3o2)c(=O)[nH]c1C | >0.06 µM |
| CC1(C)CC[C@]2(C(=O)O)CC[C@]3(C)C(=CC[C@@H]4[C@@]5(C)CC[C@H](OC(=O)CC(C)(C)C(=O)O)C(C)(C)[C@@H]5CC[C@]43C)[C@@H]2C1 | 19.2 µM |
| COc1cc2c(c3oc(=O)ccc13)[C@@H](OC(=O)C13CCC(C)(C(=O)O1)C3(C)C)[C@@H](OC(=O)C13CCC(C)(C(=O)O1)C3(C)C)C(C)(C)O2 | >153 µM |
| CCN(CC)CCNc1nc(NCCCCCCNC(=O)c2ccc(C(=O)NCCCCCCNc3nc4c(c(NCCN(CC)CC)n3)CC=CC4)cc2)nc2c1CC=CC2 | 1.5 µM |
| COc1cnc2ccc(=O)n3c4ccccc4c1c23 | >100 µg/mL |
| C=C(C)[C@@H]1CC[C@]2(C(=O)OC)CC[C@]3(C)[C@H](CC[C@@H]4[C@@]5(C)CC[C@H](NC(=O)CC(C)(C)CC(=O)O)C(C)(C)[C@@H]5CC[C@]43C)[C@@H]12 | 23.5 µM |
| C=C(C)[C@@H]1CC[C@]2(COC(=O)CC(C)(C)CC(=O)O)CC[C@]3(C)[C@H](CC[C@@H]4[C@@]5(C)CC[C@@H](OC(=O)CC(C)(C)CC(=O)O)C(C)(C)[C@@H]5CC[C@]43C)[C@@H]12 | 33.6 µM |
| C=C(C)[C@@H]1CC[C@]2(C(=O)NCCCCCCCC(=O)N[C@@H](CC(C)C)[C@@H](O)CC(=O)O)CC[C@]3(C)[C@H](CC[C@@H]4[C@@]5(C)CC[C@H](O)C(C)(C)[C@@H]5CC[C@]43C)[C@@H]12 | >2.7 µM |
| O=C1OCC2OC(O)C(O)C(O)C2OC(=O)c2cc(O)c(O)c(O)c2-c2c(O)c(O)c3oc(=O)c4c(c(O)c(O)c5oc(=O)c2c3c54)-c2c1cc(O)c(O)c2O | >20 µg/mL |
| CC(C)[C@@H]1CC[C@]2(COC(=O)CCCC(=O)O)CC[C@]3(C)[C@H](CC[C@@H]4[C@@]5(C)CC[C@H](OC(=O)CCCC(=O)O)C(C)(C)[C@@H]5CC[C@]43C)[C@@H]12 | 26.3 µM |
| CC(C)CCC[C@@H](C)[C@H]1CCC2C3CCC4C[C@@H](OCc5cn([C@@H]6O[C@H](COS(=O)(=O)[O-])[C@@H](O[C@H]7O[C@H](COS(=O)(=O)[O-])[C@@H](O[C@H]8O[C@H](COS(=O)(=O)[O-])[C@@H](OS(=O)(=O)[O-])[C@H](OS(=O)(=O)[O-])[C@H]8OS(=O)(=O)[O-])[C@H](OS(=O)(=O)[O-])[C@H]7OS(=O)(=O)[O-])[C@H](OS(=O)(=O)[O-])[C@H]6OS(=O)(=O)[O-])nn5)CC[C@]4(C)C3CC[C@@]21C | 190 µg/mL |
| C=C(C)[C@@H]1CC[C@]2(CNC(=O)CC(C)(C)CC(=O)O)CC[C@]3(C)[C@H](CC[C@@H]4[C@@]5(C)CC[C@H](NC(=O)CC(C)(C)CC(=O)O)C(C)(C)[C@@H]5CC[C@]43C)[C@@H]12 | 20.6 µM |
| CC(C)[C@H](Cc1ccccc1)NC(=O)C[C@@H]1O[C@@H]1[C@H](Cc1ccccc1)NC(=O)[C@@H](NC(=O)OCc1ccccc1)C(C)(C)S(C)(=O)=O | >100 µM |
| OCC(S)CS | <5 µg/mL |
| C=C(C)[C@@H]1CC[C@]2(C(=O)O)CC[C@]3(C)[C@H](CC[C@@H]4[C@@]5(C)CC[C@H](OC(=O)C(C)(C)CC(=O)O)C(C)(C)[C@@H]5CC[C@]43C)[C@@H]12 | 15.9 µM |
| CC(C)[C@H](Cc1ccccc1)NC(=O)C[C@@H]1O[C@@H]1[C@H](Cc1ccccc1)NC(=O)[C@H](CS(C)(=O)=O)NC(=O)c1ccc2ccccc2n1 | >100 µM |
| CCCNc1nc(NCCCNC(=O)c2cccc(C(=O)NCCCNc3nc4c(c(NCCC)n3)CC=CC4)c2)nc2c1CC=CC2 | 6.3 µM |
| BrCc1cc(OCc2ccccc2)c(OCc2ccccc2)c(OCc2ccccc2)c1-c1c(CBr)cc(OCc2ccccc2)c(OCc2ccccc2)c1OCc1ccccc1 | >100 µM |

Repeating the first 4 entries:

O=c1ccn(C2C[C@H](CO)[C@@H](CO)C2)c(=O)[nH]1 ; result: >100 µg/mL
O[C@H]1OC[C@H](Cc2ccc3c(c2)OCO3)[C@H]1Cc1ccc2c(c1)OCO2 ; result: >100 µg/mL
C[C@@H]1O[C@H]2O[C@H]3[C@@H](OC[C@@H](O)[C@@H]3O)OC(=O)[C@]34CCC(C)(C)C[C@@]3(C)C3=CC[C@@]5(C)[C@@](C)(CC[C@@H]6[C@](C)(CO)[C@@H](O[C@@H]7O[C@H](CO)[C@@H](O)[C@H](O)[C@H]7O[C@@H]7O[C@@H](C(=O)C[C@](C)(O)CC(=O)O[C@@H]1[C@@H](O[C@@H]1OC[C@@H](O)[C@H](O)[C@H]1O)[C@H]2O)[C@H](O)[C@H](O)[C@H]7O)[C@@H](O)C[C@@]65C)[C@]3(C)CC4 ; result: 59 µg/mL
C=C(C)[C@@H]1CC[C@]2(COC(=O)CC(C)(C)C(=O)O)CC[C@@H]3[C@H](CC[C@H]4[C@H]3CC[C@H]3C(C)(C)[C@@H](O)CC[C@]43C)[C@@H]12 ; result: 37.4 µM